{"source": "PubChem BioAssay AID1259414 | Drosophila RNAi Screening Center – 2018", "screen": "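Fly genes that alter Wolbachia amount inside host cells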 (primary screen)", "system": "Drosophila JW18 cells infected with Wolbachia", "reagents": "long dsRNA against Drosophila genes, 0.25 µg dsRNA per well of a 384-well plate", "duration": "5 days", "challenge": "cells persistently infected with Wolbachia before knock-down; no added drug", "measured": "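Automated imaging of bacterial rRNA staining divided by host cell count, reported as plate-normalised robust z-score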", "direction": "Wolbachia per cell robust z: higher = more Wolbachia per host cell than the plate typical", "call rule": "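Active if absolute robust z reaches 1.5 in two or more of three replicates, leaving out multi- or no-target dsRNAs, genes unexpressed in JW18 and A1 wells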", "note": "The screen tested about 24,000 reagents; this is a random part of those that have a named target and a result. Over the whole deposit, about 1,210 (5%) are marked active. 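Inactive calls also include excluded dsRNAs with several or no targets, genes unexpressed in JW18, and well A1, regardless of score.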 Reagents against one gene are numbered here. Reagent sequences are not shown."}
{"target": "Rpt1", "reagent": 1, "Wolbachia per cell robust z, rep 1": 3.11, "Wolbachia per cell robust z, rep 2": 1.9, "Wolbachia per cell robust z, rep 3": 2.26, "Call": "active"}
{"target": "chico", "reagent": 1, "Wolbachia per cell robust z, rep 1": -0.304, "Wolbachia per cell robust z, rep 2": 0.27, "Wolbachia per cell robust z, rep 3": -0.0516, "Call": "inactive"}
{"target": "chico", "reagent": 2, "Wolbachia per cell robust z, rep 1": -0.721, "Wolbachia per cell robust z, rep 2": -0.221, "Wolbachia per cell robust z, rep 3": -0.362, "Call": "inactive"}
{"target": "Ice2", "reagent": 1, "Wolbachia per cell robust z, rep 1": 0.474, "Wolbachia per cell robust z, rep 2": -0.0643, "Wolbachia per cell robust z, rep 3": 0.154, "Call": "inactive"}
{"target": "Ugt35B1", "reagent": 1, "Wolbachia per cell robust z, rep 1": 0.315, "Wolbachia per cell robust z, rep 2": 0.326, "Wolbachia per cell robust z, rep 3": 0.0769, "Call": "inactive"}
{"target": "Ugt35B1", "reagent": 2, "Wolbachia per cell robust z, rep 1": -0.683, "Wolbachia per cell robust z, rep 2": 0.927, "Wolbachia per cell robust z, rep 3": 0.668, "Call": "inactive"}
{"target": "Ugt35B1", "reagent": 3, "Wolbachia per cell robust z, rep 1": -0.0305, "Wolbachia per cell robust z, rep 2": 0.245, "Wolbachia per cell robust z, rep 3": 1.18, "Call": "inactive"}
{"target": "obst-A", "reagent": 1, "Wolbachia per cell robust z, rep 1": 0.505, "Wolbachia per cell robust z, rep 2": 0.483, "Wolbachia per cell robust z, rep 3": -1.48, "Call": "inactive"}
{"target": "CG15764", "reagent": 1, "Wolbachia per cell robust z, rep 1": 0.394, "Wolbachia per cell robust z, rep 2": -2.23, "Wolbachia per cell robust z, rep 3": -1.3, "Call": "inactive"}
{"target": "CG15764", "reagent": 2, "Wolbachia per cell robust z, rep 1": 0.0834, "Wolbachia per cell robust z, rep 2": -0.231, "Wolbachia per cell robust z, rep 3": 0.0455, "Call": "inactive"}
{"target": "PH4alphaNE3", "reagent": 1, "Wolbachia per cell robust z, rep 1": -1.35, "Wolbachia per cell robust z, rep 2": -0.773, "Wolbachia per cell robust z, rep 3": -0.91, "Call": "inactive"}
{"target": "PH4alphaNE3", "reagent": 2, "Wolbachia per cell robust z, rep 1": -0.9, "Wolbachia per cell robust z, rep 2": 0.0665, "Wolbachia per cell robust z, rep 3": -0.0405, "Call": "inactive"}
{"target": "lncRNA:CR42736", "reagent": 1, "Wolbachia per cell robust z, rep 1": -2.57, "Wolbachia per cell robust z, rep 2": -0.00388, "Wolbachia per cell robust z, rep 3": -0.192, "Call": "inactive"}
{"target": "l(1)sc", "reagent": 1, "Wolbachia per cell robust z, rep 1": -0.362, "Wolbachia per cell robust z, rep 2": -0.757, "Wolbachia per cell robust z, rep 3": 0.767, "Call": "inactive"}
{"target": "l(1)sc", "reagent": 2, "Wolbachia per cell robust z, rep 1": 0.39, "Wolbachia per cell robust z, rep 2": 0.537, "Wolbachia per cell robust z, rep 3": 0.524, "Call": "inactive"}
{"target": "Gsc", "reagent": 1, "Wolbachia per cell robust z, rep 1": 0.408, "Wolbachia per cell robust z, rep 2": 0.43, "Wolbachia per cell robust z, rep 3": -0.944, "Call": "inactive"}
{"target": "Gsc", "reagent": 2, "Wolbachia per cell robust z, rep 1": 0.427, "Wolbachia per cell robust z, rep 2": 0.0577, "Wolbachia per cell robust z, rep 3": 0.429, "Call": "inactive"}

Active calls (from the list above):
{"target": "Rpt1", "reagent": 1, "Wolbachia per cell robust z, rep 1": 3.11, "Wolbachia per cell robust z, rep 2": 1.9, "Wolbachia per cell robust z, rep 3": 2.26, "Call": "active"}
